In the data set the target is CYP1A2 (Homo sapiens, UniProt P05177). In words: CYP inhibition evaluation in human liver microsomes, CYP1A2 (phenacetin). Conditions: CYP1A2 in HLM; positive control, final conc. 3 μM in Table S1.

Protein sequences, listed by entry. Tags and fused reporters are not part of them.
UniProt P05177, whole entry: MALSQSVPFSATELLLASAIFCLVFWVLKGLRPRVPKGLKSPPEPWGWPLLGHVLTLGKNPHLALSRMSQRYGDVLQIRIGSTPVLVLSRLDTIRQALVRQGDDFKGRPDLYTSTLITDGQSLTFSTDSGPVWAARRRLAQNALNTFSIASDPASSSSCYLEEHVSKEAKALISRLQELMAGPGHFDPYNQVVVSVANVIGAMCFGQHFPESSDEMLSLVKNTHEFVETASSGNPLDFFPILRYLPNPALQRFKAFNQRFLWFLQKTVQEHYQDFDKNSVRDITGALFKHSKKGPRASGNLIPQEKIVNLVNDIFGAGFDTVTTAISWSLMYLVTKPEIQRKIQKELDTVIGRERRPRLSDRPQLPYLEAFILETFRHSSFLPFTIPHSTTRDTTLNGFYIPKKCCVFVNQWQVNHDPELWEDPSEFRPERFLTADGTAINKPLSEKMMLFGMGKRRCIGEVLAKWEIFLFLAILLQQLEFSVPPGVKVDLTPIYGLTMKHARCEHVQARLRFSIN

With `O=c1cc(-c2ccccc2)oc2c1ccc1ccccc12` [α-Naphthoflavone, reference compound], the “Activity (% VC)” value is given as 12.8 % VC.

The record behind these values is publication PMC9320654, “Study on In Vitro Metabolism and In Vivo Pharmacokinetics of Beauvericin” (Toxins, 2022).
